Biological target: T1, NEDD8 (human, UniProt Q15843 1-76)
T1 construct: also called hNEDD8; source: E. coli, purified (Ni-NTA, HRV 3C cleavage, Superdex 75)
Assay: ITC
Details: both partners purified

B1: OtDUB_(170–264) (the UBD) (domain or fragment)
chain: VNFLSENRMITSAAAALADTLLKNNNRITEGVLVDRIFDNKILSVQEKQQLLNNLLDNHIKENKSLTKESLTRMLASTHFVQQQANVLLNEKFNK
notes: source: E. coli Rosetta DE3, purified (glutathione resin, SEC)
- Kd: 31 ± 14 nM

Reference: PMC7214410, “A deubiquitylase with an unusually high-affinity ubiquitin-binding domain from the scrub typhus pathogen Orientia tsutsugamushi” (Nature Communications, 2020)
